This passage reports EC50 results from patent US20180155413A1 (AstraZeneca / MedImmune, published 2018).

The target of experiment [1] is T1, recombinant HA derived from B/Brisbane/60/2008 of the Victoria lineage (influenza B virus).
T1 construct: coated on ELISA plates
The experiment is described as follows: ELISA, rHA coated on plate. On the technique in general: In an ELISA, binding on a coated surface is turned into a signal by an enzyme label.

In experiment [2] the target is T2, recombinant HA derived from B/Florida/4/2006 of the Yamagata lineage (influenza B virus).
T2 construct: coated on ELISA plates
Briefly: ELISA, rHA coated on plate.

B1: FBC39 IgG (antibody, V domains shown)
VH: EVQLVVSGGGLVKPGGSLRLSCAASGLSFLNAWMSWVRQAPGKGLEWVGRIKSNTDGGTTDYAAPVKGRFSISRDDSKNMLFLHMSSLRTEDTAVYYCATDGPYSDDFRSGYAARYRYFGMDVWGQGTTVTVSS
VL: DIQMTQSPSSVSASVGDRVTITCRASQDISTWLAWYQQKPGKAPKLLIYAASSLQSGVPSRFSGSGSGTDFTLTISSLQPEDFATYFCQQANSFPPTFGQGTKLEIK
One may read the EC50 as the concentration at which the effect is half-maximal. On to B1, for which the EC50 was 2.07 nM in experiment [1] and 0.29 nM in experiment [2].

B2: FBD94 IgG (antibody, V domains shown)
VH: EVQLVESGGGLVQPGRSLRLSCAVSGFIFEDYAINWVRQAPGKGLEWVSIISWDSGRIGYADSVRGRFTISRDNAKNSSFLQMNSLRPEDTAVYYCVKDMLAYYYDGSGIRYNLYGMDVWGQGTTVTVSS
VL: EIVLTQSPATLSLSPGERATLSCRASRSITTFLAWYQQKPGQAPRLLIYDASNRATGVPARFSGSGSGTDFTLTINSLEPDDFAIYYCQQRDHWPPIFGQGTRLEIK
Consider B2, for which the EC50 in experiment [1] was determined as 0.09 nM; in experiment [2], 0.1 nM.
